In publication PMC12069340 (Frontiers in Cellular and Infection Microbiology, 2025):
Counter-ions that a name gives are not always drawn.

Tested on: A/PuertoRico/8/1934 (H1N1) virus
Assay type: cell-based, influenza A virus
Conditions: ratio CC50 / IC50

Molecule | SI
CCCN1C[C@H](CSC)C[C@@H]2c3cccc4[nH]cc(c34)C[C@H]21 [Pergolide mesylate] | >11.3
Cc1cccc(C(C)c2cnc[nH]2)c1C (stereo not shown) [Medetomidine HCl] | >6.4
O=C(C[S+]([O-])Cc1ccco1)NC/C=C\COc1cc(CN2CCCCC2)ccn1 (stereo not shown) [Lafutidine] | >5.4
Cc1ccc(N(CC2=NCCN2)c2cccc(O)c2)cc1 [Phentolamine Mesylate] | >80.0
CCCN(CCc1cccs1)[C@H]1CCc2c(O)cccc2C1 [Rotigotine] | >63.5
Meclizine 2HCl | 15
CN(C)[C@@H](CCOc1cccc2ccccc12)c1ccccc1 [Dapoxetine HCl] | 11.4
O=C(c1ccc(OCCCc2cnc[nH]2)cc1)C1CC1 [Ciproxifan] | >57.1
CN1CCCC(n2nc(Cc3ccc(Cl)cc3)c3ccccc3c2=O)CC1 (stereo not shown) [Azelastine HCl] | 6.6
Cc1ccc(OCC(O)C(C)NC(C)C)c2c1CCC2 (stereo not shown) [ICI-118551] | >13.8
Promethazine HCl | >8.6
OCc1cc(C(O)CNCCCCCCOCCCCc2ccccc2)ccc1O (stereo not shown) [Salmeterol Xinafoate] | 9.1
OC(CNCC(O)C1CCc2cc(F)ccc2O1)C1CCc2cc(F)ccc2O1 (stereo not shown) [Nebivolol] | 3.4
